# Laboratory results reported in patent publication US20100003217A1, “Compounds and Pharmaceutical Compositions for the Treatment of Viral Infections” (priority 2008, published 2010).
# What was measured:
# [1] = system: S282T HCV replicon (184R-A cells); settings: 184R-A (S282T); EC50 in resistant line divided by EC50 in wild-type cells
# Protocol: 3. The 184R-A cell line was derived by culturing wild-type replicon cells in the presence of 1 to 5 μM of Compound 1 for >100 days.
# (§1) 1. […] Huh-7 cells were seeded into column 1 of each plate at a similar density.
# (§2) 2. […] Eight additional 3-fold serial dilutions of each compound were prepared from the 2× stock in assay medium. Final drug concentrations ranged from 100 to 0.015 μM.
# (§3) 3. […] This setup was run in duplicate in each 96-well plate.
# (§4) 4. Cells were incubated with inhibitors for three days at 37° C./5% CO2.
# (§5) 1. After three days of drug treatment, media was removed from the plates via gentle tapping and the cells were fixed to the plates with 100 μL/well of 1:1 acetone:methanol.
# (§6) 2. After one minute of incubation at room temperature, plates were washed three times with 100 μL/well of ELISA wash solution and then blocked with 150 μL/well of 10% FBS-TNE.
# (§7) 3. After a one hour incubation at room temperature, plates were washed three times with 100 μL/well of ELISA wash solution, and then 100 μL/well of mouse anti-hepatitis C […] mAb (1 mg/mL stock diluted 1:1,500 in 10% FBS-TNE) was added.
# 4. […]
# (§8) 6. The absorbance was measured at 490 nm on a Victor^3 V 1420 multilabel counter (Perkin Elmer). The percent inhibition of HCV replicon replication was calculated for each drug using an average of the duplicate wells.
# [2] = system: wild-type HCV replicon (GS4.1 cells); settings: GS4.1 (wild-type), EC50 reference
# Protocol: as §1, §2, §3, §4, §5, §6, §7
# (§9) 4. Following 2 hours of incubation at 37° C., plates were washed three times with 100 μL/well of ELISA wash solution, and then 100 μL/well of HRP-goat anti-mouse antibody (diluted 1:4,000 in 10% FBS-TNE) was added.
# 4. […]
# as §8
# [3] = system: S282T HCV replicon (184R-D2 cells); settings: 184R-D2 (S282T); EC50 in resistant line divided by EC50 in wild-type cells
# Protocol: as §1, §2, §3, §4, §5, §6, §7, §9
# 4. […]
# as §8
compound,measurement,setting,value
"NC(=O)c1ncn([C@@H]2O[C@H](CO)[C@@H](O)[C@H]2O)n1 [RBV, ribavirin, reference compound]",Fold shift from wild-type,[1],0.32 fold
same,Fold shift from wild-type,[2],1 fold
same,Fold shift from wild-type,[3],0.45 fold
